“Also recorded” adds a separate entry of the source.
Tested on: HIV infected persons
Assay: Clinical trial of niacin (nicotinamide) in HIV infected persons: plasma amino acids by HPLC, tolerability
Assay type: in vivo, human
Conditions: 3 grams/day of oral nicotinamide for 2 months

## NC(=O)c1cccnc1 [nicotinamide]
  change in plasma amino acid concentrations other than tryptophan (methionine, lysine, cysteine, taurine): no discernible pattern of change; also recorded: no significant change
